Results of unrelated studies side by side (data: NIAID ChemDB).

Shared fields: target-level tests; species: Toxoplasma gondii

An empty or dashed field is not shown. Percent inhibition refers to the dose given; in toxicity tests it is the harm to the cells. Lines come from different laboratories, so protocols vary. ICn: concentration for n% inhibition.

compound | read-out | dose | protein | strain or isolate | result
CN(Cc1cnc2nc(N)nc(N)c2n1)c1cc(Cl)c(C(=O)N[C@@H](CCC(=O)O)C(=O)O)cc1Cl | IC50 | - | DHFR | RH | 0.082 µM
NC(=O)c1[nH]cnc1N | Ki | - | Phosphoribosyltransferase | RH | 9 µM
CCS(=O)(=O)c1ccc(N2C(N)=NC(N)=NC2(C)C)cc1 | IC50 | - | DHFR | RH | 8.9 µM
S=c1nccc(Oc2ccccc2)[nH]1 | IC50 | - | Uracil phosphoribosyltransferase | RH | >2000 µM
Nc1ccc(S(=O)(=O)Nc2ccc(C(=O)O)cc2)cc1 | IC50 | - | DHPS | - | >670 µM
CC1(C)N=C(N)N=C(N)N1c1cc(C(F)(F)F)cc(C(F)(F)F)c1 | IC50 | - | DHFR | RH | 0.58 µM
Cn1c(=O)[nH]c(=O)c2[nH]cnc21 | inhibition | 900 µM | Phosphoribosyltransferase | RH | <10%
Cc1cc(NS(=O)(=O)c2ccc(N)cc2)no1 | IC50 | - | DHPS | - | 1938 µM
Nc1ncnc2nc[nH]c12 | IC50 | - | Phosphoribosyltransferase | RH | >900 µM
O=c1[nH]cc(Cc2ccccc2)c(=O)[nH]1 | inhibition | 2000 µM | Uracil phosphoribosyltransferase | RH | <5%
CN(Cc1cnc2nc(N)nc(N)c2n1)c1ccc(C(=O)N[C@@H](CCC(=O)O)C(=O)O)cc1C(F)(F)F | IC50 | - | DHFR | RH | 0.0067 µM
Nc1cnccn1 | inhibition | 2000 µM | Uracil phosphoribosyltransferase | RH | <5%
CN(Cc1cnc2nc(N)nc(N)c2n1)c1c(Cl)cc(C(=O)N[C@@H](CCC(=O)O)C(=O)O)cc1Cl | IC50 | - | DHFR | RH | 0.00123 µM
O=C(O)c1c(O)cncc1O | IC50 | - | Uracil phosphoribosyltransferase | RH | >2000 µM
CN1CN(C)c2n[nH]nc2C1=O | inhibition | 900 µM | Phosphoribosyltransferase | RH | <10%
Cc1nc(NS(=O)(=O)c2ccc(N)cc2)ncc1Br | IC50 | - | DHPS | - | 2100 µM
O=c1[nH]cc(C(F)(F)F)c(=O)[nH]1 | IC50 | - | Uracil phosphoribosyltransferase | RH | >2000 µM
O=c1[nH]ncc2n[nH]nc12 | inhibition | 900 µM | Phosphoribosyltransferase | RH | <10%
O=c1cc(CCl)[nH]c(=O)[nH]1 | IC50 | - | Uracil phosphoribosyltransferase | RH | >2000 µM
CCC1S/C(=N/S(=O)(=O)c2ccc(N)cc2)NC1=O | IC50 | - | DHPS | - | 970 µM
O=c1[nH]c(=O)[nH]c(=O)[nH]1 | IC50 | - | Uracil phosphoribosyltransferase | RH | >2000 µM
CN1CNc2[nH]c(=O)[nH]c(=O)c21 | Ki | - | Phosphoribosyltransferase | RH | 5700 µM
Nc1c[nH]c(=O)[nH]c1=O | inhibition | 2000 µM | Uracil phosphoribosyltransferase | RH | <5%
Cc1c(CNc2ccc(Cl)c(C(=O)NC(CC(=O)O)C(=O)O)c2)ccc2nc(N)nc(N)c12 | IC50 | - | DHFR | RH | 0.0104 µM

Again, the opening 2 rows:

compound,read-out,dose,protein,strain or isolate,result
CN(Cc1cnc2nc(N)nc(N)c2n1)c1cc(Cl)c(C(=O)N[C@@H](CCC(=O)O)C(=O)O)cc1Cl,IC50,-,DHFR,RH,0.082 µM
NC(=O)c1[nH]cnc1N,Ki,-,Phosphoribosyltransferase,RH,9 µM